Experimental findings from patent publication US9051591B2, “Bacterium of enterobacteriaceae family producing L-aspartic acid or L-aspartic acid-derived metabolites and a method for producing L-aspartic acid or L-aspartic acid-derived metabolites” (AJINOMOTO CO., INC., priority 2010, dated 2015) are described below.

Substrate in data set [1]: NC(=O)c1ccc[n+]([C@@H]2O[C@H](COP(=O)([O-])OP(=O)(O)OC[C@H]3O[C@@H](n4cnc5c(N)ncnc54)[C@H](O)[C@@H]3O)[C@@H](O)[C@H]2O)c1
Description: purified protein, by the assay type. To be noted: other: Aspartate oxidative deamination; Michaelis-Menten plots.

Substrate in data set [2]: O=C(O)CC(=O)C(=O)O
Description: purified protein, by the assay type. The note with it: other: Oxaloacetate reductive amination; Michaelis-Menten plots.

By kcat/Km is commonly meant the turnover number divided by the Michaelis constant. In general, Vmax refers to the top rate of the reaction or transport when substrate is in excess.

B1: Ralstonia eutropha ADH-Re (Cupriavidus necator H16) (protein)
chain: MGSSHHHHHHSSGLVPRGSHMLHVSMVGCGAIGRGVMELLKSDPEVVFDVVIVPEHTMDEARDAVTALAPGARVATHLDDQRPDLLVECAGHHALEEHIVPALERGIPCMVVSVGALSEPGMAERLEAAARRGGTQVQLLSGAIGAIDALAAARVGGLDEVIYTGRKPARAWAGTPAEQLFDLDALTEATVIFEGTARDAARLYPKNANVAATVSLAGLGLDRTSVKLLADPHAVENVHHVEARGAFGGFELTMRGKPLAANPKTSALTVFSVVRALGNRAHAVSI
B1: the kcat/Km in data set [1] came out at 11700 M⁻¹ s⁻¹. Besides, in data set [2], the maximum rate (Vmax) was 117 µmol/min/mg and the specificity constant (kcat/Km) was determined as 18300 M⁻¹ s⁻¹.
